From patent publication US20090280130A1 (priority 2006, published 2009) come the findings set out here.

The experiment relates to zebrafish embryos. The experiment in a line: Zebrafish embryo LeTx toxin phenotype scoring, Experiment #2 (higher LeTx). It counts as in vivo. As to conditions: LeTx ~75 fMoles PA+~110 fMoles LF, ~28 hours post injection; for # Wild-type Phen / Mild Phen / Severe Toxin Phen: number of embryos.

Consider `Cc1cc(F)c(Nc2ncnc3cc(OCc4ccccc4)ccc23)cc1O`, for which, under “inhibitor 250 nM”, the “% With Toxin Phen (Mild and Severe)” value was determined as 95%; the “# Wild-type Phen” value is listed as 1; the “Mild Phen” value was 5; the “Severe Toxin Phen” value is given as 13. Further, under “inhibitor 500 nM”, the “% With Toxin Phen (Mild and Severe)” value is recorded as 30%; the “# Wild-type Phen” value amounted to 14; the “Mild Phen” value came out at 4; the “Severe Toxin Phen” value was determined as 2. For the same molecule, where the note is “inhibitor 1.5 uM”, the “% With Toxin Phen (Mild and Severe)” value is given as 74%; the “# Wild-type Phen” value came to 5; the “Mild Phen” value was determined as 9; the “Severe Toxin Phen” value stood at 5. In addition, for the setting “inhibitor 1 uM”, the “# Wild-type Phen” value amounted to 6, the “Mild Phen” value was found to be 7 and the “Severe Toxin Phen” value turned out to be 7.
